Here are results for eight molecules from patent US20220356230A1.

Where “and” joins values, the source holds several entries; their conditions need not be identical. Equal entries are not always repeated. Where two headings read alike, the source gives them in different places.

Common to all, as to details: remark: other sources report otherwise
The target of experiment [1] is T1, Bt-SARS-CoV-2 Spike Protein (RBD)([…]).mFc (SARS-CoV-2). Nature of the experiment: Luminex bead assay, antibody supernatant, biotinylated antigen on microspheres.
The target of experiment [2] is T2, Bt-SARS-CoV-2 Spike Protein (RBD)([…]).hFc (SARS-CoV-2). The description is as above.
Experiment [3] deals with T3, SARS-COV-2-S RBD extracellular domain expressed with a C-terminal myc-myc-hexahistidine (SARS-COV-2 RBD-MMH) (SARS-CoV-2).
The target in experiment [4] is SARS-CoV-2 Spike Protein (RBD)([…]).mmH (SARS-CoV-2). Briefly: Luminex bead assay, supernatant on antigen microspheres.
For experiment [5], the target named is T3, SARS-COV-2-S RBD extracellular domain …. This is another data set of the same source.
For experiment [6], the target named is T1, Bt-SARS-CoV-2 Spike Protein ….
For experiment [7], the target named is T2, Bt-SARS-CoV-2 Spike Protein ….
For experiment [8], the target named is SARS-CoV-2 Spike Protein (RBD)([…]).mmH (SARS-CoV-2). Nature of the experiment: Luminex bead assay, supernatant on antigen microspheres. The source holds these as a separate data set.
For experiment [9] the target is unchanged.

B1: mAb10937 (antibody)
heavy: QITLKESGPTLVKPTQTLTLTCTFSGFSLSTNVVGVGWIRQPPGKALEWLALIYWNDDKRYSPSLKSRLTITKDTSKNQVVLTMTNMDPVDTATYYCAHGPTGDYFDYWGQGTLVTVSSASTKGPSVFPLAPSSKSTSGGTAALGCLVKDYFPEPVTVSWNSGALTSGVHTFPAVLQSSGLYSLSSVVTVPSSSLGTQTYICNVNHKPSNTKVDKKV[human IgG1 Fc left out here]
light: [about 100 residues left out here][about 120 residues left out here]
Consider B1, for which the values for the Binding signal (MFI) in experiment [1] and in [2] were 19700 MFI and 31500 MFI, respectively. Further, the t½ in experiment [3] was 0.6 min and 0.7 min.

B2: mAb10967 (antibody)
heavy: EVQLVESGGGLVQPGGSLRLSCAASGFTVSSNYMSWVRQAPGKGLEWVSVIYPGGSTFYADSVKGRFTISRDNSKNTLYLQMNSLRAEDTAVYYCARDQRDFAWGQGTLVTVSSASTKGPSVFPLAPSSKSTSGGTAALGCLVKDYFPEPVTVSWNSGALTSGVHTFPAVLQSSGLYSLSSVVTVPSSSLGTQTYICNVNHKPSNTKVDKKV[human IgG1 Fc left out here]
light: DIQMTQSPSSLSASVGDRVTITCQASQDISNYLNWYQQKPGKAPKLLIYDASNLETGVPSRFSGSGSGTDFTFTISGLQPEDIATYYCQQYDNLPPTFGQGTRLEIKRTVAAPSVFIFPPSDEQLKSGTASVVCLLNNFYPREAKVQWKVDNALQSGNSQESVTEQDSKDSTYSLSSTLTLSKADYEKHKVYACEVTHQGLSSPVTKSFNRGEC
With B2, the Binding signal (MFI) came out at 26500 MFI in experiment [4], 16800 MFI in experiment [6], 24300 MFI in experiment [7] and 28500 MFI in [8]. Further, the t½ is 38.8 min and 28.5 min in experiment [3]; 38.8 min and 33.5 min in experiment [5].

B3: mAb10956 (antibody)
heavy: EVQLVESGGGLVQPGGSLRLSCAASGLTVSSNYMSWVRQAPGKGLEWVSVIYSGGSTFYADSVKGRFTISRDNSKNTLYLQMNSLRAEDTAVYYCARDLIKYGMDVWGQGTTVTVSSASTKGPSVFPLAPSSKSTSGGTAALGCLVKDYFPEPVTVSWNSGALTSGVHTFPAVLQSSGLYSLSSVVTVPSSSLGTQTYICNVNHKPSNTKVDKKV[human IgG1 Fc left out here]
light: DIQMTQSPSSLSASVGDRVTITCQASQDISNYLNWYQQKPGKAPKLLIYDASNLETGVPSRFSGSGSGTDFTFTISSLQPEDIATYYCQQYDNLPPHFGPGTKVDIKRTVAAPSVFIFPPSDEQLKSGTASVVCLLNNFYPREAKVQWKVDNALQSGNSQESVTEQDSKDSTYSLSSTLTLSKADYEKHKVYACEVTHQGLSSPVTKSFNRGEC
As to B3, the Binding signal (MFI) in [4] came out at 25700 MFI; in [6], 12900 MFI; in experiment [7] it was 24500 MFI; in experiment [8], 27900 MFI. Moreover, the t½ in [3] is 0.5 min; in experiment [5] it was 0.8 min.

B4: mAb10957 (antibody)
heavy: EVQLVESGGGLVQPGGSLRLSCAASGVTVSSNYMSWVRQAPGKGLEWVSVIYSGGSTFYADSVKGRFTISRDNSKNTLFLQMNSLRIEDTAVYYCARDLGPYGMDVWGQGTTVTVSSASTKGPSVFPLAPSSKSTSGGTAALGCLVKDYFPEPVTVSWNSGALTSGVHTFPAVLQSSGLYSLSSVVTVPSSSLGTQTYICNVNHKPSNTKVDKKV[human IgG1 Fc left out here]
light: DIQLTQSPSFLSASVGDRVTITCRASQGISSYLAWYQQKPGKAPKLLIYAASTLQSGVPSRFSGSGSGTQFILTISSLQPEDFATYYCQQLNSYPGFTFGPGTKVDIKRTVAAPSVFIFPPSDEQLKSGTASVVCLLNNFYPREAKVQWKVDNALQSGNSQESVTEQDSKDSTYSLSSTLTLSKADYEKHKVYACEVTHQGLSSPVTKSFNRGEC
On to B4, for which the Binding signal (MFI) stood at 20600 MFI in [4], 10600 MFI in experiment [6], 16700 MFI in experiment [7] and 23400 MFI in [8]. Besides, the t½ in experiment [3] was 19.9 min and 14.6 min; in experiment [5] it was 19.9 min and 15.1 min.

B5: mAb10914 (antibody)
heavy: EVQLVESGGGLVQPGGSLRLSCAASGLIVSRNYMIWVRQAPGKGLEWVSVIYSGGSTFYADSVKGRFTISRHNSKNTLYLQMNSLRAEDTAVYYCARDLGTGGMDVWGQGTTVTVSSASTKGPSVFPLAPSSKSTSGGTAALGCLVKDYFPEPVTVSWNSGALTSGVHTFPAVLQSSGLYSLSSVVTVPSSSLGTQTYICNVNHKPSNTKVDKKV[human IgG1 Fc left out here]
light: DIQLTQSPSFLSASVGDRVTITCWASQGISSYLAWYQQKPGKAPKLLIYAASTLQSGVPSRFSGSGSGTEFTLTISSLQPEDFATYYCQQLNSYPLTFGGGTKVEIKRTVAAPSVFIFPPSDEQLKSGTASVVCLLNNFYPREAKVQWKVDNALQSGNSQESVTEQDSKDSTYSLSSTLTLSKADYEKHKVYACEVTHQGLSSPVTKSFNRGEC
Take B5: the Binding signal (MFI) in experiment [1] was 16000 MFI; in experiment [2], 26000 MFI; in [9], 32000 MFI and 29600 MFI.

B6: mAb10932 (antibody)
heavy: EVQLVESGGGLVQSGGSLRLSCAASGLTVSSNYMSWVRQAPGKGLEWVSVIYSGGSTFYSDSVKGRFTISRHNSKNTLYLQMNSLRAEDTAVYYCARARGDAFDIWGQGTMVTVSSASTKGPSVFPLAPSSKSTSGGTAALGCLVKDYFPEPVTVSWNSGALTSGVHTFPAVLQSSGLYSLSSVVTVPSSSLGTQTYICNVNHKPSNTKVDKKV[human IgG1 Fc left out here]
light: DIQMTQSPSSLSASVGDRVTITCQASQGISNYLNWYQQKPGKAPKLLISDASNLETGVPSRFSGSGSGTDFTFTISSLQPEDIATYYCQQYDNLRFFTFGPGTKVDIKRTVAAPSVFIFPPSDEQLKSGTASVVCLLNNFYPREAKVQWKVDNALQSGNSQESVTEQDSKDSTYSLSSTLTLSKADYEKHKVYACEVTHQGLSSPVTKSFNRGEC
For B6, the Binding signal (MFI) in [1] is 17700 MFI; in [2], 26200 MFI; in experiment [9] it was 30000 MFI and 30100 MFI.

B7: mAb10913 (antibody)
heavy: EVQLVESGGGLVQPGGSLRLSCAASGFTFRNYEMNWVRQAPGKGLEWVSYITSSGSTMYYADSVKGRFTISRDNAKNSLYLQMNSLRAEDTAVYYCARDGFYYYYAMDVWGQGTTVTVSSASTKGPSVFPLAPSSKSTSGGTAALGCLVKDYFPEPVTVSWNSGALTSGVHTFPAVLQSSGLYSLSSVVTVPSSSLGTQTYICNVNHKPSNTKVDKKV[human IgG1 Fc left out here]
light: QSVLTQPPSVSAAPGQKVTISCSGSSSNIGNNYVSWYQQLPGTAPKLLIYDNNKRPSGIPDRFSGSKSGTSATLGITGLQTGDEADYYCGTWDSSLSVGRVFGTGTKVTVLGQPKAAPSVTLFPPSSEELQANKATLVCLISDFYPGAVTVAWKADSSPVKAGVETTTPSKQSNNKYAASSYLSLTPEQWKSHRSYSCQVTHEGSTVEKTVAPTECS
As to B7, the Binding signal (MFI) in experiment [1] was 16600 MFI; in [2] it was 27500 MFI; in experiment [9], 30700 MFI and 29200 MFI. Also, the t½ in [3] was determined as 0.3 min.

B8: mAb10986 (antibody)
heavy: EVQLVESGGGLVQPGGSLRLSCAASEFTVSSNYMSWVRQAPGKGLEWVSVIYSGGSTFYADSVKGRFTISRDNSKNTLYLQMNSLRAEDTAVYYCARALPYGDLHFDYWGQGTLVTVSSASTKGPSVFPLAPSSKSTSGGTAALGCLVKDYFPEPVTVSWNSGALTSGVHTFPAVLQSSGLYSLSSVVTVPSSSLGTQTYICNVNHKPSNTKVDKKV[human IgG1 Fc left out here]
light: QSVLTQPPSVSGAPGQRVTISCTGSSSNIGTGYDVHWYQQLPGTAPKLLIYGNTNRPSGVPDRFSGSKSGTSASLAITGLQAEDEADYYCQSYDSSLSDSYVFGTGTKVTVLGQPKAAPSVTLFPPSSEELQANKATLVCLISDFYPGAVTVAWKADSSPVKAGVETTTPSKQSNNKYAASSYLSLTPEQWKSHRSYSCQVTHEGSTVEKTVAPTECS
B8: the results for the Binding signal (MFI) in experiment [6] and in experiment [7] were 15900 MFI and 23400 MFI, respectively.

Usually t½ stands for how long it takes for the measured level to halve. The low end stands for fast loss, the high end for slow loss.
